# Measured values published in PubChem BioAssay AID1745857 (National Center for Advancing Translational Sciences (NCATS), 2022).
# The list shows a part of the results, in another mix than the full data. Inconclusive results are not listed. The source made the active and inactive calls. The call rests on the fitted dose curve.
# Experiment: Primary qHTS Assay for Foot and Mouth Disease Virus Antivirals against NCGC Sytravon and CBC Compound Libraries: Renilla Luciferase Signal; further: nearly all actives have a fitted effect of over 55% in size
# Settings: FMDV replicon cells; at 57.5 µM (top of the series)
# On the % scale 0 is the no-effect control and ±100 the full control effect.
row,SMILES,"activity change, negative = inhibition"
1,CC(C)(C)c1ccc(C(=O)NCC2(N3CCOCC3)CCCCC2)cc1,inactive: -1.29%
2,CC1CN(CCc2ccccc2)C(C)CC1=O (centres undefined),inactive: 5.58%
3,Cc1ccccc1C(=O)NCC1(N(C)C)CCCCC1,inactive: -4.3%
4,Clc1ccccc1CN1CCC(Nc2ccc(Br)cc2)CC1,inactive: 24.8%
5,Cn1cc(C(=O)NCC2(N3CCOCC3)CCCCC2)c2ccccc21,inactive: -18%
6,CN(C)C1(CNC(=O)c2cc3c(s2)CCC3)CCCCC1,inactive: -6.54%
7,CN(C)C1(CNC(=O)c2ccc(C(C)(C)C)cc2)CCCCC1,inactive: -15.3%
8,COc1cc(C(=O)NCC2(N3CCOCC3)CCCCC2)cc(OC)c1OC,inactive: 0.879%
9,CCCOc1ccc(C(=O)NCC2(N(C)C)CCCCC2)cc1,inactive: -0.701%
10,CCCOc1ccccc1C(=O)NCC1(N(C)C)CCCCC1,inactive: -0.181%
11,Cc1ccc2oc(C(=O)NCC3(N4CCCCC4)CCCCC3)cc(=O)c2c1,inactive: -0.818%
12,Fc1ccc(CN2CCC(Nc3ccc(Br)cc3)CC2)cc1,inactive: -0.966%
13,O=C(NCC1(N2CCCCC2)CCCCC1)c1n[nH]c(=O)c2ccccc12,inactive: -7.55%
14,Cc1cc(NC2CCN(Cc3ccccc3)CC2)ccc1Br,inactive: -17.2%
15,Cn1nc(C(=O)NCC2(N3CCOCC3)CCCCC2)c2ccccc2c1=O,inactive: 6.3%
16,CCC(=O)N(c1ccccc1)C1CCNCC1,inactive: -8.68%
17,O=C(NCC1(N2CCOCC2)CCCCC1)c1n[nH]c(=O)c2ccccc12,inactive: 7.41%
18,Brc1ccc(NC2CCN(Cc3cccc(Br)c3)CC2)cc1,inactive: 2.64%
19,O=C(NCC1(N2CCOCC2)CCCCC1)c1ccccc1,inactive: -12.7%
20,O=C(NCC1(N2CCOCC2)CCCCC1)c1ccc([N+](=O)[O-])cc1,inactive: -1.55%

row,SMILES,"activity change, negative = inhibition"
1,CC1C(=O)CCN(CCc2ccccc2)C1C (centres undefined),inactive: -1.55%
2,O=C(NCC1(N2CCOCC2)CCCCC1)c1ccccc1[N+](=O)[O-],inactive: 7.99%
3,CCc1cc(C(=O)NCC2(N3CCOCC3)CCCCC2)sc1C,inactive: 5.52%
4,CCCOc1cccc(C(=O)NCC2(N3CCOCC3)CCCCC2)c1,inactive: -1.15%
5,CCCOc1cccc(C(=O)NCC2(N(C)C)CCCCC2)c1,inactive: 2.46%
6,CCOc1ccc(C(=O)NCC2(N3CCOCC3)CCCCC2)cc1,inactive: -2.4%
7,O=C(NCC1(N2CCOCC2)CCCCC1)c1cc2c(s1)CCCC2,inactive: -9.58%
8,CCCCOc1ccccc1C(=O)NCC1(N2CCOCC2)CCCCC1,inactive: 3.42%
9,O=C(NCC1(N2CCOCC2)CCCCC1)c1ccccc1Br,inactive: -9.28%
10,O=C(NCC1(N2CCOCC2)CCCCC1)c1c[nH]c2ccccc12,inactive: -7.31%
11,COc1ccccc1C(=O)NCC1(N(C)C)CCCCC1,inactive: 1.01%
12,CC1CN(CCc2ccccc2)CCC1=O (centres undefined),inactive: 13%
13,CCOC(=O)N1CCC(=O)CC1,inactive: -9.15%
14,Cc1ccc(C(C)CCN(CCCl)CCCl)cc1 (centres undefined),inactive: -28.3%
15,O=C(NCC1(N2CCCCC2)CCCCC1)c1c[nH]c2ccccc12,inactive: -11.5%
16,CCCOc1ccccc1C(=O)NCC1(N2CCOCC2)CCCCC1,inactive: 15.4%
17,CN(C)C1(CNC(=O)c2nn(C)c(=O)c3ccccc23)CCCCC1,inactive: -1.19%
18,COc1ccccc1C(=O)NCC1(N2CCOCC2)CCCCC1,inactive: -8.36%
19,O=C(NCC1(N2CCOCC2)CCCCC1)c1ccc(Cl)cc1,inactive: -10.6%
